These are literature values, as cited in publication PMC1617126.

Sequences of proteins named here, by UniProt entry; tags and fusion partners are left off. Residues count along the entry.
UniProt P13423, 30-196: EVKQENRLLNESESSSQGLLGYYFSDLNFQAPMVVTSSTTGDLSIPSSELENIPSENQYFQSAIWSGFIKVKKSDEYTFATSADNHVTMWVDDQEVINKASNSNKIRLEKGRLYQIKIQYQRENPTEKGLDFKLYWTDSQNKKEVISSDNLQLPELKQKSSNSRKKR
UniProt Q9H6X2, 38-220: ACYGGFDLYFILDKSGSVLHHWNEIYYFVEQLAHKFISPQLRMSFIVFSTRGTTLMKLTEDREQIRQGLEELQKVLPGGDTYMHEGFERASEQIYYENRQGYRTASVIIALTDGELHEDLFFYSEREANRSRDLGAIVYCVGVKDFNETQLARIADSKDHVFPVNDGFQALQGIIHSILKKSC

For the data set, the target named is protective antigen (PA) (Bacillus anthracis) (UniProt P13423).

“And” between values parts separate entries of the source, which are not always exact repeats. Equal entries are not always repeated.

Consider ANTXR1 I domain (from UniProt Q9H6X2), for which the Kd is 130 nM and 1100 nM.
